Results of unrelated studies side by side (data: NIAID ChemDB).

Shared fields: growth or infection tests; organism: HIV-1

Blank or dashed fields: not listed here. Lines come from different laboratories, so protocols vary. ECn is the concentration giving n% inhibition of infection, replication or growth.

| structure | mutations | method | cell line | read-out | strain | result |
|---|---|---|---|---|---|---|
| COc1ccc(C(O)P(=O)(OC[C@H]2O[C@@H](n3ccc(=O)[nH]c3=O)C[C@@H]2N=[N+]=[N-])Oc2ccccc2)cc1 |  | cytopathic effect / MTT | MT-4 | EC50 | IIIB | >20 µM |
| Cc1ccc(-n2c(C)nnc2SCC(=O)Nc2ccccc2Br)c2ccccc12 | Y188L |  | HeLa | EC50 |  | 0.069 µM |
| Cc1nn(-c2ccccc2)c2nnn(N)c12 |  | cytopathic effect / MTT | MT-4 | EC50 |  | >200 µM |
| Cn1c2ccccc2c2c3c(c4c5ccccc5n(CC(F)F)c4c21)CNC3=O |  | syncytia | U1/HIV-1(PMA) + U1 | EC50 |  | 0.04 µM |
| CCOP(=O)(OC[C@H]1O[C@@H](n2cc(C)c(=O)[nH]c2=O)C[C@@H]1N=[N+]=[N-])C(=O)N1CCOCC1 |  | p24 | MT-4 | EC90 | GKV-4046 | 0.0021 µM |
| CC(=O)CCCCn1c(=O)c2c(ncn2C)n(C)c1=O |  | p24 | PBMC | EC50 | IIIB | 200 µM |
| CCOC(=O)P(=O)(OCCc1ccccc1)OC[C@H]1O[C@@H](n2cc(C)c(=O)[nH]c2=O)C[C@@H]1N=[N+]=[N-] |  | p24 | MT-4 | EC50 | GKV-4046 | 0.0039 µM |
| CCCNC(=O)n1nnc2c(C)nn(-c3ccccc3)c21 |  | cytopathic effect / MTT | MT-4 | EC50 |  | >74 µM |
| CN1Cc2c(c3c4ccccc4n(C)c3c3c2c2ccccc2n3CCC#N)C1=O |  | p24 | U1/HIV-1(PMA) + U1 | EC50 |  | >>1 µM |
| Cc1cn([C@H]2C[C@H](N=[N+]=[N-])[C@@H](COP(=O)(OC(C)C)C(N)=O)O2)c(=O)[nH]c1=O |  | p24 | MT-4 | EC90 | GKV-4046 | 0.006 µM |
| Nc1ncnc2c1ncn2CCOCP(=O)(O)O |  | cytopathic effect / XTT | MT-2 | EC50 | IIIB | 13.4 µM |
| CCCNC(=O)/N=C1\C(=[N+]=[N-])C(C)=NN1c1ccccc1 |  | cytopathic effect / MTT | MT-4 | EC50 |  | >77 µM |
| Cc1nnc(SCC(=O)Nc2ccc(S(N)(=O)=O)cc2Cl)n1-c1ccc(N(C)C)c2ccccc12 | Y188L |  | HeLa | EC50 |  | 0.087 µM |
| CC(=O)O[C@@H]1[C@@H]2[C@@H](OC(C)=O)[C@@]34O[C@@]2(C)COC(=O)c2cccnc2[C@@H](C)[C@H](C)C(=O)O[C@@H]([C@H](OC(C)=O)[C@H](OC(C)=O)[C@@]3(COC(=O)c2ccoc2)[C@@H]1OC(C)=O)C4(C)O |  | p24 | H9 | EC50 | IIIB | 0.1 µg/mL |
| O=[N+]([O-])c1cccc(Cn2c(Cl)nc3cc(Cl)c(Cl)cc32)c1 |  | plaque count / syncytia | CEM + CEM-SS | EC50 | IIIB | 27 µM |
| CC(=O)OC[C@]12[C@H](OC(C)=O)[C@H](OC(C)=O)[C@@H]3[C@@H](OC(C)=O)[C@@]14O[C@@]3(C)COC(=O)c1cnccc1[C@@H](C)[C@@](C)(O)C(=O)O[C@@H]([C@H](OC(=O)c1ccoc1)[C@@H]2OC(C)=O)C4(C)O |  | p24 | H9 | EC50 | IIIB | 0.1 µg/mL |
| CNc1nc2c(o1)c(C)nn2-c1ccccc1 |  | cytopathic effect / MTT | MT-4 | EC50 |  | >31 µM |
| Cc1cc2c(C)ccc(-n3c(C)nnc3SCC(=O)Nc3ccccc3Br)c2cc1C | Y188L |  | HeLa | EC50 |  | 0.11 µM |
| O=C1N(Cc2ccc(CO)cc2)[C@H](Cc2ccccc2)[C@H](O)[C@@H](O)[C@@H](Cc2ccccc2)N1Cc1ccc(CO)cc1 | PR-L10R M46I L63P | p24 | MT-4 | EC50 | NL4-3 | <0.2 µM |
| COc1ccc(OP(=O)(OC[C@H]2O[C@@H](n3cc(C)c(=O)[nH]c3=O)C[C@@H]2N=[N+]=[N-])C(O)c2cccnc2)cc1 |  | cytopathic effect / MTT | MT-4 | EC50 | IIIB | 0.01 µM |
| Cc1nnc(SCC(=O)Nc2ccc(S(N)(=O)=O)cc2Cl)n1-c1cccc2cc(Br)cnc12 |  |  | HeLa | EC50 |  | 0.0008 µM |
| CCOC(=O)P(=O)(OC[C@H]1O[C@@H](n2cc(C)c(=O)[nH]c2=O)C[C@@H]1N=[N+]=[N-])OC1CCCCC1 |  | p24 | MT-4 | EC50 | GKV-4046 | 0.0064 µM |
| O=C1N(Cc2cccc(-c3cn[nH]n3)c2)[C@H](Cc2ccccc2)[C@H](O)[C@@H](O)[C@@H](Cc2ccccc2)N1Cc1cccc(-c2cn[nH]n2)c1 |  |  | MT-2 | EC50 | RF | <0.094 µM |
| CCOC(=O)CNC(=O)n1nnc2c(C)nn(-c3ccccc3)c21 |  | cytopathic effect / MTT | MT-4 | EC50 |  | >122 µM |
| Cc1cn([C@H]2C[C@H](N=[N+]=[N-])[C@@H](COP(=O)(Oc3ccccc3)C(O)c3ccccc3)O2)c(=O)[nH]c1=O |  | cytopathic effect / MTT | MT-4 | EC50 | IIIB | 0.06 µM |
| CC(C)CN(C[C@@H](O)[C@H](Cc1ccccc1)NC(=O)[C@@H](NC(=O)CNCc1cccc(F)c1)C(C)(C)C)S(=O)(=O)c1cccc(N)c1 |  | virus yield | MT-2 | EC90 | IIIB | 0.0046 µM |
| O=c1[nH]cnc2c1ncn2[C@H]1CC[C@@H](CO)O1 |  | cytopathic effect / XTT | MT-2 | EC50 | IIIB | 6.5 µM |
| Cc1cn([C@H]2C[C@H](N=[N+]=[N-])[C@@H](COP(=O)(O)C(O)c3cccnc3)O2)c(=O)[nH]c1=O |  | cytopathic effect / MTT | MT-4 | EC50 | IIIB | 2.4 µM |
| CN[C@H]1C[C@@H](N)[C@H](O)[C@@H](O[C@@H]2O[C@H](CO)[C@H](O)[C@@H]3OC4(O[C@H]23)O[C@H]([C@@H](N)CO)[C@H](O)[C@@H](O)[C@H]4O)[C@@H]1O |  | p24 | PBMC | EC50 | 92HT593 | ~4 µM |
| N#CCCn1c2ccc(O)cc2c2c3c(c4c5cc(O)ccc5[nH]c4c21)C(=O)NC3 |  | p24 | U1/HIV-1(PMA) + U1 | EC50 |  | 0.23 µM |
| Cc1cn([C@H]2C[C@H](N=[N+]=[N-])[C@@H](CO)O2)c(=O)[nH]c1=O |  | cytopathic effect / MTT | MT-4 | EC50 | IIIB | 0.01 µM |
| CC(C)CN(C[C@@H](O)[C@H](Cc1ccccc1)NC(=O)[C@@H](NC(=O)CNCc1cccc(F)c1)C(C)(C)C)S(=O)(=O)c1ccc(N)cc1 |  | virus yield | MT-2 | EC50 | THAI 9466 | <0.011 µM |
| N[C@@H](CCC(=O)N[C@@H](CS)C(=O)NCC(=O)O)C(=O)O |  | p24 | H9(HIV-1(IIIB)) + H9 | EC50 | IIIB | >2500 µM |
| CCOP(=O)(OC[C@H]1O[C@@H](n2cc(C)c(=O)[nH]c2=O)C[C@@H]1N=[N+]=[N-])C(=O)NCCc1ccccc1 |  | p24 | MT-4 | EC50 | GKV-4046 | 0.0009 µM |
| CC(C)(C)NC(=O)[C@@H]1C[C@@H]2CCCC[C@@H]2CN1C[C@@H](O)[C@H](Cc1ccccc1)NC(=O)[C@H](CC(N)=O)NC(=O)c1ccc2ccccc2n1 | PR-L10R M46I L63P 184V | p24 | MT-4 | EC50 | NL4-3 | <0.1 µM |
| Cc1cn([C@H]2C[C@H](N=[N+]=[N-])[C@@H](CO)O2)c(=O)[nH]c1=O |  | MTT | MT-4 | EC50 |  | 0.1 µM |
| Clc1ccc(Cn2c(Br)nc3cc(Cl)c(Cl)cc32)cc1Cl |  | RT activity | CEM + CEM-SS | EC50 | IIIB | >100 µM |
| Cc1cn([C@H]2C[C@H](N=[N+]=[N-])[C@@H](CO)O2)c(=O)[nH]c1=O |  | cytopathic effect / MTT | MT-2 | EC50 | LAI | 0.1 µM |
| COCCNC(=O)[C@@H](NC(=O)[C@H](Cc1ccc(OC)c(OC)c1OC)C[C@H](O)[C@H](Cc1ccccc1)NC(=O)OC(C)(C)C)C(C)C |  |  | PBL | EC99 |  | 0.06 µM |
| CC(=O)OC[C@]12[C@H](OC(C)=O)[C@H](OC(C)=O)[C@@H]3[C@@H](OC(C)=O)[C@@]14O[C@@]3(C)COC(=O)c1cccnc1CC[C@H](C)C(=O)O[C@@H]([C@H](OC(=O)c1ccccc1)[C@@H]2OC(C)=O)C4(C)O |  | p24 | H9 | EC50 | IIIB | >100 µg/mL |
| Nc1cccc(CN2C(=O)N(Cc3cccc(-c4ccn[nH]4)c3)[C@H](Cc3ccccc3)[C@H](O)[C@@H](O)[C@H]2Cc2ccccc2)c1 |  |  | MT-2 | EC50 | RF | <0.027 µM |
| Cc1cccc(NC(=O)CSc2nnc(C)n2-c2ccccc2)c1C |  |  | HeLa | EC50 |  | 0.0005 µM |
| Nc1ccn([C@H]2CC[C@@H](CO)O2)c(=O)n1 |  | cytopathic effect / XTT | MT-2 | EC50 | IIIB | 1.4 µM |
| COc1ccc(-n2c(SCC(=O)Nc3ccc(S(N)(=O)=O)cc3Cl)nnc2C(F)(F)F)c2ccccc12 | Y188L |  | HeLa | EC50 |  | 0.014 µM |
| Cc1cn([C@H]2C[C@H](N=[N+]=[N-])[C@@H](CO)O2)c(=O)[nH]c1=O |  | plaque count / syncytia | CEM + CEM-SS | EC50 | IIIB | 0.0026 µM |
| O=C1N(Cc2cccc(-c3ncc[nH]3)c2)[C@H](Cc2ccccc2)[C@H](O)[C@@H](O)[C@@H](Cc2ccccc2)N1Cc1cccc(-c2ncc[nH]2)c1 |  |  | MT-2 | EC50 | RF | <0.234 µM |
| Cc1cn([C@H]2C[C@H](N=[N+]=[N-])[C@@H](COP(=O)(Oc3ccccc3)C(O)c3cccnc3)O2)c(=O)[nH]c1=O |  | cytopathic effect / MTT | MT-4 | EC50 | IIIB | 0.04 µM |
| CCCCC#CCSc1ccccc1OC(C)=O |  |  | MDM | EC50 |  | 10 µM |
| O=C1N(Cc2cccc(/C(=N\O)C(F)(F)F)c2)[C@H](Cc2ccccc2)[C@H](O)[C@@H](O)[C@@H](Cc2ccccc2)N1Cc1cccc(/C(=N\O)C(F)(F)F)c1 |  |  | MT-2 | EC50 | RF | <0.714 µM |

For reference, 6 entries again:

| structure | mutations | method | cell line | read-out | strain | result |
|---|---|---|---|---|---|---|
| CC(=O)O[C@@H]1[C@@H]2[C@@H](OC(C)=O)[C@@]34O[C@@]2(C)COC(=O)c2cccnc2[C@@H](C)[C@H](C)C(=O)O[C@@H]([C@H](OC(C)=O)[C@H](OC(C)=O)[C@@]3(COC(=O)c2ccoc2)[C@@H]1OC(C)=O)C4(C)O |  | p24 | H9 | EC50 | IIIB | 0.1 µg/mL |
| O=C1N(Cc2cccc(/C(=N\O)C(F)(F)F)c2)[C@H](Cc2ccccc2)[C@H](O)[C@@H](O)[C@@H](Cc2ccccc2)N1Cc1cccc(/C(=N\O)C(F)(F)F)c1 |  |  | MT-2 | EC50 | RF | <0.714 µM |
| Cc1cn([C@H]2C[C@H](N=[N+]=[N-])[C@@H](CO)O2)c(=O)[nH]c1=O |  | MTT | MT-4 | EC50 |  | 0.1 µM |
| CC(=O)OC[C@]12[C@H](OC(C)=O)[C@H](OC(C)=O)[C@@H]3[C@@H](OC(C)=O)[C@@]14O[C@@]3(C)COC(=O)c1cccnc1CC[C@H](C)C(=O)O[C@@H]([C@H](OC(=O)c1ccccc1)[C@@H]2OC(C)=O)C4(C)O |  | p24 | H9 | EC50 | IIIB | >100 µg/mL |
| CCCNC(=O)n1nnc2c(C)nn(-c3ccccc3)c21 |  | cytopathic effect / MTT | MT-4 | EC50 |  | >74 µM |
| CC(=O)OC[C@]12[C@H](OC(C)=O)[C@H](OC(C)=O)[C@@H]3[C@@H](OC(C)=O)[C@@]14O[C@@]3(C)COC(=O)c1cnccc1[C@@H](C)[C@@](C)(O)C(=O)O[C@@H]([C@H](OC(=O)c1ccoc1)[C@@H]2OC(C)=O)C4(C)O |  | p24 | H9 | EC50 | IIIB | 0.1 µg/mL |